Results as given in PubChem BioAssay AID2391 (Southern Research Specialized Biocontainment Screening …, 2010).
This is one part of the list. Measured potencies and affinities stand elsewhere. Active and inactive are the calls of the source. No rule for the calls is given here.

assay: RSV antiviral activity via CPE protection, HEp-2 cells, primary 10 µM value included (AID 2391); details: RSV-induced CPE inhibition, at 10 µM, active compounds read high

Row | Structure (SMILES) | CPE inhibition
1 | Nc1cccc2ccc([As](=O)(O)O)cc12 | inactive: 6.23%
2 | CCN(N=Nc1nonc1N)c1nonc1N | inactive: 1.99%
3 | O=P(Nc1nc2ccc(Cl)cc2s1)(c1ccccc1)c1ccccc1 | inactive: 3.65%
4 | CC(=O)Nc1ccc([As](=O)(O)O)cc1 | inactive: 0.38%
5 | O=C(O)c1ccccc1[As](=O)(O)O | inactive: -2.02%
6 | Cc1cc(SC(NC(=O)c2ccc(F)cc2)C(Cl)(Cl)Cl)ncn1 (configuration not stated) | inactive: 0.14%
7 | CCOP(=O)(Nc1ccccc1)OCC | inactive: 1.1%
8 | Cc1ccc(NP(=O)(Oc2ccccc2F)Oc2ccccc2F)nc1 | inactive: 0.34%
9 | CN(C(=O)Cc1ccc(Cl)c(Cl)c1)[C@H]1CCCC[C@@H]1N1CCCC1 | inactive: -1.98%
10 | ClCCSc1nnc(-c2cccnc2)o1 | inactive: 0.65%
11 | CC(C)NC(=O)NP(=O)(Oc1ccccc1)Oc1ccccc1 | inactive: -1.81%
12 | CCN(CC)C(=S)SC(NC=O)C(Cl)(Cl)Cl (configuration not stated) | inactive: 1.74%
13 | O=[N+]([O-])c1cc([N+](=O)[O-])c(-c2ccn[nH]2)s1 | inactive: 2.41%
14 | C[As](=O)(O)c1cccc(C(=O)O)c1 | inactive: 2.87%
15 | O=[As](O)(c1ccc(O)cc1)c1ccccc1O | inactive: 2.66%
16 | COc1cc(C(=O)NCC2(N3CCOCC3)CCCCC2)ccc1OCC(C)C | inactive: 0.08%
17 | Cc1ccc(OP(=O)(Nc2ccc([N+](=O)[O-])cn2)Oc2ccc(C)cc2)cc1 | inactive: 0.73%
18 | COc1ccc(N/C(=N/P(=O)(N2CCOCC2)N2CCOCC2)N2CCOCC2)cc1 | inactive: 1.07%
19 | O=C(OC1CN2CCC1CC2)C12CC3CC(CC(C3)C1)C2 (configuration not stated) | inactive: -0.57%
20 | Cc1cc(=O)[nH]c(N[N+](=O)[O-])n1 | inactive: 0.28%
21 | COc1ccc2nc(NP(=O)(c3ccccc3)c3ccccc3)sc2c1 | inactive: -0.51%
22 | COc1cc(I)ccc1[As](=O)(O)O | inactive: 0.1%
23 | O=C(OC1CN2CCC1CC2)c1cccc([N+](=O)[O-])c1 (configuration not stated) | inactive: 0.66%
24 | CCOC(=O)c1ccc(NC(=O)C(C)(CCl)SC)cc1 (configuration not stated) | inactive: 0.79%
25 | CCC(C)N(CC(C)C)C(=S)SC(NC(C)=O)C(Cl)(Cl)Cl (configuration not stated) | inactive: -2.93%
26 | COP1(=S)c2c(C)nn(CCC#N)c2N=C(c2ccc(F)cc2)N1C (configuration not stated) | inactive: -0.88%

Row | Structure (SMILES) | CPE inhibition
27 | O=C(COc1ccccc1)OC1CN2CCC1CC2 (configuration not stated) | inactive: 1.49%
28 | O=C(Nc1ccncc1[N+](=O)[O-])c1ccc([N+](=O)[O-])cc1[N+](=O)[O-] | inactive: 3.5%
29 | CCOC(=O)Nc1cccc([As](=O)(O)O)c1 | inactive: 1.72%
30 | O=P(Nc1ccccn1)(c1cccc2ccccc12)c1cccc2ccccc12 | inactive: 6.64%
31 | Cc1cc(SC(NC=O)C(Cl)(Cl)Cl)ncn1 (configuration not stated) | inactive: 1.8%
32 | O=[N+]([O-])c1ccc(Nc2ccc(Oc3ccc([N+](=O)[O-])cc3[N+](=O)[O-])cc2)c([N+](=O)[O-])c1 | inactive: 0.21%
33 | CCOC(=O)Nc1ccc([As](=O)(O)O)c(O)c1 | inactive: 0.14%
34 | Cc1cc(SC(NC(=O)c2ccccc2)C(Cl)(Cl)Cl)nc(C(C)C)n1 (configuration not stated) | inactive: 1.37%
35 | O=P1(Nc2ncccn2)COc2ccccc2OC1 | inactive: 1.29%
36 | Nc1cccc([As](=O)(O)c2ccccc2)c1 | inactive: 1.1%
37 | Cc1ccc(OCC(=O)OC2CN3CCC2CC3)cc1 (configuration not stated) | inactive: 0.4%
38 | O=[As](O)(c1cccs1)c1cccs1 | inactive: 2.2%
39 | O=P1(Nc2ccc(Br)cn2)COc2ccccc2OC1 | inactive: 0.2%
40 | NS(=O)(=O)c1cccc(NC(=O)COC(=O)C(O)(c2ccccc2)c2ccccc2)c1 | inactive: 0.77%
41 | Cc1nn(-c2ccccc2)c2c1P(=O)(N1CCOCC1)N(C)C(c1ccccc1)=N2 (configuration not stated) | inactive: 1.63%
42 | CC1CCC(C(C)C)C(OP(=O)(Nc2ccccn2)c2ccccc2)C1 (configuration not stated) | inactive: -1.73%
43 | Cc1ccc(C(=O)OC2CN3CCC2CC3)cc1 (configuration not stated) | inactive: 0.49%
44 | CN(C)C1(CNC(=O)c2ccc(S(C)(=O)=O)cc2)CCCCC1 | inactive: 0.36%
45 | COc1ccccc1CNC(=O)COC(=O)C(O)(c1ccccc1)c1ccccc1 | inactive: -1.17%
46 | CC(C)/C=N\N=C(\N)N[N+](=O)[O-] | inactive: 3.24%
47 | CN(C(=O)Cc1ccc(Cl)c(Cl)c1)[C@@H]1CCCC[C@H]1N1CCCC1 | inactive: -2.31%
48 | O=[As](O)(c1ccccc1Br)c1ccccc1Br | inactive: 4.38%
49 | O=P1(Nc2ccccn2)COc2ccccc2OC1 | inactive: 1.48%
50 | CCOP(=O)(NC(=NC(C)c1ccccc1)NC(C)c1ccccc1)OCC (configuration not stated) | inactive: 1.89%
51 | CCOP(=O)(Nc1ccc(C)cn1)OCC | inactive: 2.2%
52 | CN(CCCl)Cc1cc(Cl)c(NC2=NCCN2)c(Cl)c1 | inactive: -1.58%

Row | Structure (SMILES) | CPE inhibition
53 | Clc1n[nH]nc1-c1nn[nH][15n]1 | inactive: 0.96%
54 | CC(C)(C)C(=O)NC(Sc1ncccn1)C(Cl)(Cl)Cl (configuration not stated) | inactive: 1.34%
55 | Cc1ccc(NCCc2c([N+](=O)[O-])cc([N+](=O)[O-])cc2[N+](=O)[O-])cc1 | inactive: 14.2%
56 | Nc1cccc2c([As](=O)(O)O)cccc12 | inactive: 1.59%
57 | CCCOP(=S)(Nc1nc(N)cc(=O)[nH]1)OCCC | inactive: 1.89%
58 | COc1cc(C2NCCC3(OCCO3)C2(C)C)cc(OC)c1OC (configuration not stated) | inactive: 1.49%
59 | CCOP(=O)(Nc1cccc2ccccc12)OCC | inactive: 1.82%
60 | O=C(OC1CN2CCC1CC2)c1ccc(Cl)cc1 (configuration not stated) | inactive: 2.05%
61 | O=[As](O)(O)c1cccnc1 | inactive: -0.08%
62 | COc1cc(C(=O)NCC2(N3CCOCC3)CCCCC2)cc(Cl)c1OC(C)C | inactive: 0.17%
63 | CS(=O)(=O)c1ccc(Cl)c(NC(=O)COC(=O)C(O)(c2ccccc2)c2ccccc2)c1 | inactive: 0.78%
64 | Cc1cccc(OCC(=O)OC2CN3CCC2CC3)c1 (configuration not stated) | inactive: 0.67%
65 | O=[As](O)(c1cccc(O)c1)c1cccc(O)c1 | inactive: 0.18%
66 | NC(=O)Nc1ccc([As](=O)(O)O)cc1 | inactive: 0.12%
67 | N#CCCN(C(=O)COC(=O)C(O)(c1ccccc1)c1ccccc1)c1ccc(F)cc1 | inactive: 0.51%
68 | CCOP1(=S)c2c(C)nn(CCC#N)c2N=C(c2ccc(F)cc2)N1C (configuration not stated) | inactive: -1.25%
69 | CN(C(=O)Cc1ccccc1)[C@@H]1CC[C@]2(CCCO2)C[C@H]1N1CCCC1 | inactive: -1.22%
70 | CN(C)C(=O)c1cc([N+](=O)[O-])cc2c1-c1c(cc([N+](=O)[O-])cc1[N+](=O)[O-])C2=O | inactive: -2.43%
71 | CN(C(=O)Cc1ccc(Cl)c(Cl)c1)[C@H]1CC[C@@]2(CCCO2)C[C@@H]1N1CCCC1 | inactive: -1.91%
72 | CCOP1(=S)c2c(C)nn(CCC#N)c2N=C(c2ccccc2F)N1C (configuration not stated) | inactive: 0.16%
73 | O=P(Nc1nccs1)(Oc1ccccc1)Oc1ccccc1 | inactive: -0.93%
74 | O=P(Nc1nccs1)(c1ccccc1)c1nc2ccccc2s1 (configuration not stated) | inactive: -0.52%
75 | CS(=O)(=O)c1cc([N+](=O)[O-])c2no[n+]([O-])c2c1 | inactive: -0.93%
76 | Nc1ccccc1[As](=O)(O)c1ccccc1 | inactive: 3.42%
77 | O=C(O)COc1ccc([As](=O)(O)O)cc1[N+](=O)[O-] | inactive: 0.53%
